From patent US10414808B2 (priority 2012, dated 2019)
Read-outs that look alike come from different tables or passages of the source.

Protein sequences, listed by entry. Tags and fused reporters are not part of them.
UniProt Q15858, whole entry W1161R, looked up: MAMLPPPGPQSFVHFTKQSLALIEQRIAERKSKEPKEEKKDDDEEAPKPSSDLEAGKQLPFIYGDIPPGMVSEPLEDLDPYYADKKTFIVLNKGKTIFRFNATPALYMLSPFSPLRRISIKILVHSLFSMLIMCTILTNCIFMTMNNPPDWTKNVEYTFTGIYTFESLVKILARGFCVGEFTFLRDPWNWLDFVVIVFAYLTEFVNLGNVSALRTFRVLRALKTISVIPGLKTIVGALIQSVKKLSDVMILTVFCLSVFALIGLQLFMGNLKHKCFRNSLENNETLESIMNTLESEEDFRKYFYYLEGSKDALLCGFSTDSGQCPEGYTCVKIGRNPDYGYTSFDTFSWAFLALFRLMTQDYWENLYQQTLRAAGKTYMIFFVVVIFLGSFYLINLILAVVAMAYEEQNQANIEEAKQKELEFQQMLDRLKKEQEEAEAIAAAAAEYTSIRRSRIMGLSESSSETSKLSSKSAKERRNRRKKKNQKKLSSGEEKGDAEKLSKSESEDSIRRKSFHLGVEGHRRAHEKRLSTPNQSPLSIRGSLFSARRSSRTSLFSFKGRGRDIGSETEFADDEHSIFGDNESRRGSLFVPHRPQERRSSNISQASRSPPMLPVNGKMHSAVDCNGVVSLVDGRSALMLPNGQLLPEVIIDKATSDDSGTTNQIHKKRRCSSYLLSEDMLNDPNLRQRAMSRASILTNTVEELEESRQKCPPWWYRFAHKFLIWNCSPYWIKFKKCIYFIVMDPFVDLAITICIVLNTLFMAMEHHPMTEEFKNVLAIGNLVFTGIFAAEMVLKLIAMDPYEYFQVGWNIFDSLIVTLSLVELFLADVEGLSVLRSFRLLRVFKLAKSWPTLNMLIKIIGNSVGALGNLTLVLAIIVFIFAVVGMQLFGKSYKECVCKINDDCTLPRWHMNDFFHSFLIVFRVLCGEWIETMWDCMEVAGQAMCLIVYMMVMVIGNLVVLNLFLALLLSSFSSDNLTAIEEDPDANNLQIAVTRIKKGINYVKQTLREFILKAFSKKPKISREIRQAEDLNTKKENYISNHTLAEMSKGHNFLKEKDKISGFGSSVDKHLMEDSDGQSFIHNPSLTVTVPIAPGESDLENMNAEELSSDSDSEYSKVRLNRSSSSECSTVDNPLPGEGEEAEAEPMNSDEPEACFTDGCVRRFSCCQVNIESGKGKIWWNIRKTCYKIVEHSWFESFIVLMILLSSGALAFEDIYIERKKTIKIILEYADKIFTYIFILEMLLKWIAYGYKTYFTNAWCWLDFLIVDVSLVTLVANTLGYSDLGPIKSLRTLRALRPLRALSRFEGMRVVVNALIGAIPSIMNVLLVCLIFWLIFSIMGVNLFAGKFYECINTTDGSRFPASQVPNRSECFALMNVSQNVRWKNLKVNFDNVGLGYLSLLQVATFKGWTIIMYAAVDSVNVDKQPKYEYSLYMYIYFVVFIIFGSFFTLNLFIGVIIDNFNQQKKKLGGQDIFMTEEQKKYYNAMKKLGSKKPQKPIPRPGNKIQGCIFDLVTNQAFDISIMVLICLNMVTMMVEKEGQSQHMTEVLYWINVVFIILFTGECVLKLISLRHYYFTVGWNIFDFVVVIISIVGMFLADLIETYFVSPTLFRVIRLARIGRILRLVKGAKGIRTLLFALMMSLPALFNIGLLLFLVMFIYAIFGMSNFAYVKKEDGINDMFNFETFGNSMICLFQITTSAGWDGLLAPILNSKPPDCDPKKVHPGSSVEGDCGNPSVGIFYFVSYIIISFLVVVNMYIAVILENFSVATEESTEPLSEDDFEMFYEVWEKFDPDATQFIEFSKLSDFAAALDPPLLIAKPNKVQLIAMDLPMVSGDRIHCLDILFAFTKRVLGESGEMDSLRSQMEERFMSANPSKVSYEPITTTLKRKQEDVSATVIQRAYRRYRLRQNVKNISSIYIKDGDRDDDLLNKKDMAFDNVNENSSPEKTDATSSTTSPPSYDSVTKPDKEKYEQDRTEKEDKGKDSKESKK
UniProt Q99250, whole entry, looked up: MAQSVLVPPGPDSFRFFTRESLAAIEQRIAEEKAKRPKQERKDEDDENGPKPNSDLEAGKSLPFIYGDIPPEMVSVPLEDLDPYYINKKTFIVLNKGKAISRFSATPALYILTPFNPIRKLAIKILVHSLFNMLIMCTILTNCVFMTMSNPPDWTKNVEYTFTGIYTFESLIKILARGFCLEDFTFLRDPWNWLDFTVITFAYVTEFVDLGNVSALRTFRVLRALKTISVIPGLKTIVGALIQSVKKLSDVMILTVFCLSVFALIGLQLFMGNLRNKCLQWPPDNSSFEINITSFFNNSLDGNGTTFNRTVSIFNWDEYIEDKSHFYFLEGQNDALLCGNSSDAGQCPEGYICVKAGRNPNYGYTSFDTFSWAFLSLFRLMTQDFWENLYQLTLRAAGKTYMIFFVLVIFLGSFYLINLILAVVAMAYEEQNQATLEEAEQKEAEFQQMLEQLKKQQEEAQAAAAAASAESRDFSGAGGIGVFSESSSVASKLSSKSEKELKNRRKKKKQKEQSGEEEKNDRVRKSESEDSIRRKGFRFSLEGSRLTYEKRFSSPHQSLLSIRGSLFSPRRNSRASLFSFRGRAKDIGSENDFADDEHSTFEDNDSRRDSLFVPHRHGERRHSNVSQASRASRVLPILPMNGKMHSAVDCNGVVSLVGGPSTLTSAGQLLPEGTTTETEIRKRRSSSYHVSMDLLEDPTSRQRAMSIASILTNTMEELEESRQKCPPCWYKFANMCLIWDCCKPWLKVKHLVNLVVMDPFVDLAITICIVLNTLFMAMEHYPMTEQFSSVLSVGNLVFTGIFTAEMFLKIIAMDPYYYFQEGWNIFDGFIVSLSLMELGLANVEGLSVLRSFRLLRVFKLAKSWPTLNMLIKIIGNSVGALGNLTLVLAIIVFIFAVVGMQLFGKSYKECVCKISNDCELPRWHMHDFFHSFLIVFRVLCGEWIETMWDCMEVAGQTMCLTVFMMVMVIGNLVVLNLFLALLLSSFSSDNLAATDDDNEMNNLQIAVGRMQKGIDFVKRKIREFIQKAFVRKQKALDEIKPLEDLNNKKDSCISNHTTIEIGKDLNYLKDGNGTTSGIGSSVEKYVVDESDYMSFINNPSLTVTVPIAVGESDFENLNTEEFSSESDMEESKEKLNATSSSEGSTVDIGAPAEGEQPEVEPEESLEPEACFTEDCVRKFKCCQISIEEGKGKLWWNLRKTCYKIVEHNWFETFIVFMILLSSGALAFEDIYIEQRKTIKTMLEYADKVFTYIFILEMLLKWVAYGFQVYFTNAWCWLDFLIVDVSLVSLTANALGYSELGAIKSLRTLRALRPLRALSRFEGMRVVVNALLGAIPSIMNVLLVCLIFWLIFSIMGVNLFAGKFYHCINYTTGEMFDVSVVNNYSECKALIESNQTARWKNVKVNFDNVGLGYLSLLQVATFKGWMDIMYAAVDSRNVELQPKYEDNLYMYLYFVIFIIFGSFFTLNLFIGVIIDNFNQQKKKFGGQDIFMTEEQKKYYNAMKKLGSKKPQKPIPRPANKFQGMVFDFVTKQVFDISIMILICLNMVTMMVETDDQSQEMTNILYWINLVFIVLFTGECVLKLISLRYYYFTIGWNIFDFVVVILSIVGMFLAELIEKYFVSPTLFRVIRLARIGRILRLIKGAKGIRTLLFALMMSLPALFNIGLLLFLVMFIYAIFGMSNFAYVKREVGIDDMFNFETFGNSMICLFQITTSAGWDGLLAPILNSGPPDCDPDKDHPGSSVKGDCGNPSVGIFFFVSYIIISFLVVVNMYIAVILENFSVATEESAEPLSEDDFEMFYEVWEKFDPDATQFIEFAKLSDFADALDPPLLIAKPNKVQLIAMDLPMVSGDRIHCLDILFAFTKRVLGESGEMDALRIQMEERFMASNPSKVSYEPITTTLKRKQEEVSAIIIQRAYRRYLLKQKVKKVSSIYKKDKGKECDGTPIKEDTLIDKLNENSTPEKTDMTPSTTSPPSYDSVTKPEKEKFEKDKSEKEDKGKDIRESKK

Experiments:
Nav1.7 = Nav1.7 (Homo sapiens, UniProt Q15858, W1161R); experiment: IC50 (Nav1.7) µM; settings: read-out: IC50 (Nav1.7) µM
Nav1.2 [1] = biological target: T1, Nav1.2 (Homo sapiens, UniProt Q99250); experiment: IC50 (Nav1.2) µM; settings: read-out: IC50 (Nav1.2) µM
Nav1.2 [2] = biological target: T1, Nav1.2; experiment: IC50 (Nav1.2) µM; settings: read-out: IC50 (Nav1.2) µM; remark: listed apart in the source

SMILES | IC50 (Nav1.7) | IC50 (Nav1.2 [1]) | IC50 (Nav1.2 [2])
CC[C@H](C)[C@H](NC(=O)[C@H](CCC(N)=O)NC(=O)[C@H](Cc1ccc(O)cc1)NC(=O)[C@H](CCCCN)NC(=O)[C@@H]1CSSC[C@@H]2NC(=O)[C@H](C)NC(=O)[C@H](CC(=O)O)NC(=O)[C@H](CC(N)=O)NC(=O)[C@H](CO)NC(=O)[C@@H]3CCCN3C(=O)[C@H](CC(N)=O)NC(=O)[C@@H]3CSSC[C@H](NC(=O)[C@H](C(C)C)NC(=O)[C@H](CC(C)C)NC(=O)[C@H](CCCCN)NC(=O)[C@H](CO)NC(=O)[C@H](CO)NC(=O)[C@H](CCCCN)NC(=O)[C@H](CSSC[C@H](NC(=O)[C@H](CCC(=O)O)NC(=O)[C@@H]4CCCN4C(=O)CN)C(=O)N[C@@H](CC(C)C)C(=O)N[C@@H](CCC(=O)O)C(=O)N[C@@H]([C@@H](C)CC)C(=O)N[C@@H](Cc4ccccc4)C(=O)N[C@@H](CCCCN)C(=O)N[C@@H](C)C(=O)N3)NC2=O)C(=O)N[C@@H](CO)C(=O)N[C@@H](CCCNC(=N)N)C(=O)N[C@@H](CCCCN)C(=O)N[C@@H]([C@@H](C)O)C(=O)N[C@@H](CCCNC(=N)N)C(=O)N[C@@H](Cc2c[nH]c3ccccc23)C(=O)N1)C(=O)NCC(=O)N[C@@H](CCCCN)C(=O)O | 0.05 µM | 0.07 µM | 
CC[C@H](C)[C@H](NC(=O)[C@H](CO)NC(=O)[C@H](Cc1ccc(O)cc1)NC(=O)[C@H](CCCCN)NC(=O)[C@@H]1CSSC[C@@H]2NC(=O)[C@H](CCC(N)=O)NC(=O)[C@H](CC(=O)O)NC(=O)[C@H](CC(N)=O)NC(=O)[C@H](CO)NC(=O)[C@@H]3CCCN3C(=O)[C@H](CC(N)=O)NC(=O)[C@@H]3CSSC[C@H](NC(=O)[C@H](C(C)C)NC(=O)[C@H](CC(C)C)NC(=O)[C@H](CCCCN)NC(=O)[C@H](CO)NC(=O)[C@H](CO)NC(=O)[C@H](CCCCN)NC(=O)[C@H](CSSC[C@H](NC(=O)[C@H](CC(N)=O)NC(=O)[C@@H]4CCCN4C(=O)CN)C(=O)N[C@@H](CC(C)C)C(=O)N[C@@H](CCCNC(=N)N)C(=O)N[C@@H]([C@@H](C)CC)C(=O)N[C@@H](Cc4ccccc4)C(=O)N[C@@H](CCCCN)C(=O)N[C@@H](C)C(=O)N3)NC2=O)C(=O)N[C@@H](CO)C(=O)N[C@@H](CCCNC(=N)N)C(=O)N[C@@H](CCCCN)C(=O)N[C@@H]([C@@H](C)O)C(=O)N[C@@H](CCCNC(=N)N)C(=O)N[C@@H](Cc2c[nH]c3ccccc23)C(=O)N1)C(=O)NCC(=O)N[C@@H](CCCCN)C(=O)O | 0.01 µM | 0.03 µM | 0.02 µM
CC[C@H](C)[C@H](NC(=O)[C@H](CCC(N)=O)NC(=O)[C@H](Cc1ccc(O)cc1)NC(=O)[C@H](CCCCN)NC(=O)[C@@H]1CSSC[C@@H]2NC(=O)[C@H](CCC(N)=O)NC(=O)[C@H](CC(=O)O)NC(=O)[C@H](CC(N)=O)NC(=O)[C@H](CO)NC(=O)[C@@H]3CCCN3C(=O)[C@H](CC(N)=O)NC(=O)[C@@H]3CSSC[C@H](NC(=O)[C@H](C(C)C)NC(=O)[C@H](CC(C)C)NC(=O)[C@H](CCCCN)NC(=O)[C@H](CO)NC(=O)[C@H](CO)NC(=O)[C@H](CCCCN)NC(=O)[C@H](CSSC[C@H](NC(=O)[C@H](CCC(=O)O)NC(=O)[C@@H]4CCCN4C(=O)CN)C(=O)N[C@@H](CC(C)C)C(=O)N[C@@H](CCC(=O)O)C(=O)N[C@@H]([C@@H](C)CC)C(=O)N[C@@H](Cc4ccccc4)C(=O)N[C@@H](CCCCN)C(=O)N[C@@H](Cc4c[nH]c5ccccc45)C(=O)N3)NC2=O)C(=O)N[C@@H](CO)C(=O)N[C@@H](CCCNC(=N)N)C(=O)N[C@@H](CCCCN)C(=O)N[C@@H]([C@@H](C)O)C(=O)N[C@@H](CCCNC(=N)N)C(=O)N[C@@H](Cc2c[nH]c3ccccc23)C(=O)N1)C(=O)NCC(=O)N[C@@H](CCCCN)C(=O)O | 0.05 µM | 0.01 µM | 
CC[C@H](C)[C@H](NC(=O)[C@H](CCC(N)=O)NC(=O)[C@H](Cc1ccc(O)cc1)NC(=O)[C@H](CCCCN)NC(=O)[C@@H]1CSSC[C@@H]2NC(=O)[C@H](CCC(N)=O)NC(=O)[C@H](CC(=O)O)NC(=O)[C@H](CC(N)=O)NC(=O)[C@H](CO)NC(=O)[C@@H]3CCCN3C(=O)[C@H](CC(N)=O)NC(=O)[C@@H]3CSSC[C@H](NC(=O)[C@H](C(C)C)NC(=O)[C@H](CC(C)C)NC(=O)[C@H](CCCCN)NC(=O)[C@H](CO)NC(=O)[C@H](CO)NC(=O)[C@H](C)NC(=O)[C@H](CSSC[C@H](NC(=O)[C@H](CCC(=O)O)NC(=O)[C@@H]4CCCN4C(=O)CN)C(=O)N[C@@H](CC(C)C)C(=O)N[C@@H](CCC(=O)O)C(=O)N[C@@H]([C@@H](C)CC)C(=O)N[C@@H](Cc4ccccc4)C(=O)N[C@@H](CCCCN)C(=O)N[C@@H](C)C(=O)N3)NC2=O)C(=O)N[C@@H](CO)C(=O)N[C@@H](CCCNC(=N)N)C(=O)N[C@@H](CCCCN)C(=O)N[C@@H]([C@@H](C)O)C(=O)N[C@@H](CCCNC(=N)N)C(=O)N[C@@H](Cc2c[nH]c3ccccc23)C(=O)N1)C(=O)NCC(=O)N[C@@H](CCCCN)C(=O)O | 0.05 µM | 0.52 µM | 
CC[C@H](C)[C@@H]1NC(=O)[C@H](C)NC(=O)[C@H](CC(C)C)NC(=O)[C@@H](NC(=O)[C@H](CCC(=O)O)NC(=O)[C@@H]2CCCN2C(=O)CN)CSSC[C@@H]2NC(=O)[C@@H]3CSSC[C@@H](C(=O)N[C@@H](CCCCN)C(=O)N[C@@H](Cc4ccc(O)cc4)C(=O)N[C@@H](CCC(N)=O)C(=O)N[C@H](C(=O)NCC(=O)N[C@@H](CCCCN)C(=O)O)[C@@H](C)CC)NC(=O)[C@H](Cc4c[nH]c5ccccc45)NC(=O)[C@H](CCCNC(=N)N)NC(=O)[C@H]([C@@H](C)O)NC(=O)[C@H](CCCCN)NC(=O)[C@H](CCCNC(=N)N)NC(=O)[C@H](CO)NC(=O)[C@H](CSSC[C@H](NC(=O)[C@H](C)NC(=O)[C@H](CCCCN)NC(=O)[C@H](Cc4ccccc4)NC1=O)C(=O)N[C@@H](CC(N)=O)C(=O)N1CCC[C@H]1C(=O)N[C@@H](CO)C(=O)N[C@@H](CC(N)=O)C(=O)N[C@@H](CC(=O)O)C(=O)N[C@@H](CCC(N)=O)C(=O)N3)NC(=O)[C@H](C(C)C)NC(=O)[C@H](CC(C)C)NC(=O)[C@H](CCCCN)NC(=O)[C@H](CO)NC(=O)[C@H](CO)NC(=O)[C@H](CCCCN)NC2=O | 0.02 µM | 0.03 µM | 
CC[C@H](C)[C@H](NC(=O)[C@H](CO)NC(=O)[C@H](Cc1c[nH]c2ccccc12)NC(=O)[C@H](CCCCN)NC(=O)[C@@H]1CSSC[C@@H]2NC(=O)[C@H](CCC(N)=O)NC(=O)[C@H](CC(=O)O)NC(=O)[C@H](CC(N)=O)NC(=O)[C@H](CO)NC(=O)[C@@H]3CCCN3C(=O)[C@H](CC(N)=O)NC(=O)[C@@H]3CSSC[C@H](NC(=O)[C@H](C(C)C)NC(=O)[C@H](CC(C)C)NC(=O)[C@H](CCCCN)NC(=O)[C@H](CO)NC(=O)[C@H](CO)NC(=O)[C@H](CCCCN)NC(=O)[C@H](CSSC[C@H](NC(=O)[C@H](CCC(=O)O)NC(=O)[C@@H]4CCCN4C(=O)CN)C(=O)N[C@@H](CC(C)C)C(=O)N[C@@H](CCC(=O)O)C(=O)N[C@@H]([C@@H](C)CC)C(=O)N[C@@H](Cc4ccccc4)C(=O)N[C@@H](CCCCN)C(=O)N[C@@H](C)C(=O)N3)NC2=O)C(=O)N[C@@H](CO)C(=O)N[C@@H](CCCNC(=N)N)C(=O)N[C@@H](CCCCN)C(=O)N[C@@H]([C@@H](C)O)C(=O)N[C@@H](CCCNC(=N)N)C(=O)N[C@@H](Cc2c[nH]c3ccccc23)C(=O)N1)C(=O)NCC(=O)N[C@@H](CCCCN)C(=O)O | 0.01 µM | 0.04 µM | 
CC[C@H](C)[C@H](NC(=O)[C@H](CCC(N)=O)NC(=O)[C@H](Cc1ccc(O)cc1)NC(=O)[C@H](CCCCN)NC(=O)[C@@H]1CSSC[C@@H]2NC(=O)[C@H](CCC(N)=O)NC(=O)[C@H](CC(=O)O)NC(=O)[C@H](CC(N)=O)NC(=O)[C@H](CO)NC(=O)[C@@H]3CCCN3C(=O)[C@H](CC(N)=O)NC(=O)[C@@H]3CSSC[C@H](NC(=O)[C@H](C(C)C)NC(=O)[C@H](CC(C)C)NC(=O)[C@H](CCCCN)NC(=O)[C@H](CO)NC(=O)[C@H](CO)NC(=O)[C@H](CCCCN)NC(=O)[C@H](CSSC[C@H](NC(=O)[C@H](CCC(=O)O)NC(=O)[C@@H]4CCCN4C(=O)CN)C(=O)N[C@@H](CC(C)C)C(=O)N[C@@H](CCC(=O)O)C(=O)N[C@@H]([C@@H](C)CC)C(=O)N[C@@H](Cc4ccccc4)C(=O)N[C@@H](CCCCN)C(=O)N[C@@H](CCC(=O)O)C(=O)N3)NC2=O)C(=O)N[C@@H](CO)C(=O)N[C@@H](CCCNC(=N)N)C(=O)N[C@@H](CCCCN)C(=O)N[C@@H]([C@@H](C)O)C(=O)N[C@@H](CCCNC(=N)N)C(=O)N[C@@H](Cc2c[nH]c3ccccc23)C(=O)N1)C(=O)NCC(=O)N[C@@H](CCCCN)C(=O)O | 0.04 µM | 0.02 µM | 
CC[C@H](C)[C@@H]1NC(=O)[C@H](CCCNC(=N)N)NC(=O)[C@H](CC(C)C)NC(=O)[C@@H](NC(=O)[C@H](CCC(=O)O)NC(=O)[C@@H]2CCCN2C(=O)CN)CSSC[C@@H]2NC(=O)[C@@H]3CSSC[C@@H](C(=O)N[C@@H](CCCCN)C(=O)N[C@@H](Cc4ccc(O)cc4)C(=O)N[C@@H](CCC(N)=O)C(=O)N[C@H](C(=O)N[C@H](C(=O)N[C@@H](CCCCN)C(=O)O)[C@@H](C)CC)[C@@H](C)CC)NC(=O)[C@H](Cc4c[nH]c5ccccc45)NC(=O)[C@H](CCCNC(=N)N)NC(=O)[C@H]([C@@H](C)O)NC(=O)[C@H](CCCCN)NC(=O)[C@H](CCCNC(=N)N)NC(=O)[C@H](CO)NC(=O)[C@H](CSSC[C@H](NC(=O)[C@H](C)NC(=O)[C@H](CCCCN)NC(=O)[C@H](Cc4ccccc4)NC1=O)C(=O)N[C@@H](CC(N)=O)C(=O)N1CCC[C@H]1C(=O)N[C@@H](CO)C(=O)N[C@@H](CC(N)=O)C(=O)N[C@@H](CC(=O)O)C(=O)N[C@@H](CCC(N)=O)C(=O)N3)NC(=O)[C@H](C(C)C)NC(=O)[C@H](CC(C)C)NC(=O)[C@H](CCCCN)NC(=O)[C@H](CO)NC(=O)[C@H](CO)NC(=O)[C@H](CCCCN)NC2=O | 0.01 µM | 0.05 µM | 
